Source: paper PMC1868957, “Structure of GrlR and the Implication of Its EDED Motif in Mediating the Regulation of Type III Secretion System in EHEC” (2007)

Assays:
[1] = target: GrlR from EHEC (strain EDL933), wild type, His-tagged (enterohemorrhagic Escherichia coli (EHEC) EDL933); assay: AUC
[2] = target: GrlR from EHEC (strain EDL933), wild type, His-tagged (enterohemorrhagic Escherichia coli (EHEC) EDL933); assay: SEC + other: dynamic light scattering

GrlR from EHEC (strain EDL933), wild type, His-tagged (natural protein)
stoichiometry N [1]: 2 | stoichiometry N [2]: 2
